A mixed list of measured activities; the numbers were collected in NIAID ChemDB.

Common to all: whole-cell or culture tests; agent: HIV-1; cell line: PBMC; read-out: EC50

Blank or dashed fields: not listed here. Lines come from different laboratories, so protocols vary. ECn is the concentration giving n% inhibition of infection, replication or growth.

structure | strain or isolate | mutations | read by | setting | value
O=c1[nH]cnc2c1ncn2[C@H]1CC[C@@H](CO)O1 | Recombinant | RT-A62V | p24 | - | 0.3 µM
Cc1cn([C@H]2C[C@H](N=[N+]=[N-])[C@@H](CO)O2)c(=O)[nH]c1=O | G780-1 NRTI resistant | RT-M41L D67N K70R T215F K219Q | p24 | - | >3.2 µM
CC(C)(C)NC(=O)[C@@H]1C[C@@H]2CCCC[C@@H]2CN1C[C@@H](O)[C@H](Cc1ccccc1)NC(=O)[C@H](CC(N)=O)NC(=O)c1ccc2ccccc2n1 | VAU (PR-L10I K20C M36I L63A I64V A71V) | PR-L10I K20C M36I L63A I64V A71V | - | - | 0.013 µM
S=C(NCCc1cccs1)Nc1ccc(Br)cn1 | G780-1 Clinical isolate NRTI-resistant | RT-M41L D67N K70R T215F K219Q | p24 | - | 0.0029 µM
Cc1cn([C@H]2C[C@H](N=[N+]=[N-])[C@@H](CO)O2)c(=O)[nH]c1=O | X165-8 Clinical isolate ZDV-resistant | RT-D67N T69N K70R K103N Y181C T215F K219E | p24 | - | 0.9 µM
CCc1c(C(=O)c2cc(C)cc(C)c2)n(CC2CC=CC2)c(=O)[nH]c1=O | CLADE F | - | cytopathic effect / XTT | clinical isolate | 0.003 µM
O=C1N(Cc2ccc(CO)cc2)[C@H](Cc2ccccc2)[C@H](O)[C@@H](O)[C@@H](Cc2ccccc2)N1Cc1ccc(CO)cc1 | RF | - | p24 | - | 0.018 µM
COC(=O)[C@H](C)NP(=O)(OC[C@@H]1C=C[C@H](n2cc(C)c(=O)[nH]c2=O)O1)Oc1ccc(Br)cc1 | R416-10 Clinical isolate ZDV-resistant | RT-M41L T215Y | p24 | - | 0.0002 µM
CC(C)=CCN1Cc2cc(Cl)cc3[nH]c(=S)n(c23)C[C@@H]1C | BCF11 | RT-A98G K103R | - | - | >6.25 µM
Cc1cn([C@H]2C[C@H](N=[N+]=[N-])[C@@H](CO)O2)c(=O)[nH]c1=O | 7076 CLADE D CLADE D | - | p24 | - | 0.046 µM
COC(=O)[C@H](C)NP(=O)(OC[C@@H]1C=C[C@H](n2cc(C)c(=O)[nH]c2=O)O1)Oc1ccc(Br)cc1 | Q252-2 NRTI resistant | RT-M41L L210W T215Y | p24 | - | 0.0019 µM
Cc1ccnc2c1NC(=O)c1cccnc1N2C1CC1 | BCF02 | RT-A98G V106I Y181C | - | - | 21 µM
Nc1ccn([C@@H]2CS[C@H](CO)O2)c(=O)n1 | 7324-1 NRTI resistant recombinant | RT-M41L D67N T69N K70R T215F K219E | RT activity | - | 0.634 µM
Cc1cn([C@H]2C[C@H](N=[N+]=[N-])[C@@H](CO)O2)c(=O)[nH]c1=O | Recombinant | RT-V75I F77L Q151M | p24 | - | 0.04 µM

A second listing of 2 rows from above:

Cc1cn([C@H]2C[C@H](N=[N+]=[N-])[C@@H](CO)O2)c(=O)[nH]c1=O ; strain or isolate: G780-1 NRTI resistant ; mutations: RT-M41L D67N K70R T215F K219Q ; read by: p24 ; value: >3.2 µM
Cc1ccnc2c1NC(=O)c1cccnc1N2C1CC1 ; strain or isolate: BCF02 ; mutations: RT-A98G V106I Y181C ; value: 21 µM